PubChem BioAssay AID624099, ICCB-Longwood | 2012

Assay: 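Knock-downs relieving repression by E2 of an HPV18 LCR luciferase reporter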 (primary screen)
System: human C33A cervical carcinoma cells (HPV-negative) stably expressing BPV1 E2 and an HPV18 LCR luciferase reporter
Reagents: siRNA pool against human genes, 40 nM
Time to read-out: 72 h
Detection: 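Per-well luciferase luminescence, z-scored on each plate against the plate mean and SD with control wells left out, then averaged across three replicate plates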
Direction: mean z-score and z-score: higher = stronger reporter signal, weaker E2 silencing
Rule for the call: 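Mean z ≥ 2 together with z ≥ 2 in two or more of the three replicates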
Shown is a random part of about 21,000 reagents tested. In the full data, 497 (2.4%) were called active. 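Higher z means weaker E2 silencing; only reporter increases were scored, and knock-downs that hurt cell survival may mask genuine repressor factors.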 No sequences are given here.

no.	gene knocked down	mean z-score	z-score, replicate A	z-score, replicate B	z-score, replicate C	call
1	EDDM3B (epididymal protein 3B)	0.71	0.66	0.59	0.87	inactive
2	AMBRA1 (autophagy and beclin 1 regulator 1)	0.28	0.53	0.25	0.06	inactive
3	MYB (MYB proto-oncogene, transcription factor)	-0.6	-0.43	-0.5	-0.88	inactive
4	CHIA (chitinase acidic)	0.74	0.48	0.72	1.02	inactive
5	NDUFB6 (NADH:ubiquinone oxidoreductase subunit B6)	-0.39	-0.56	-0.13	-0.48	inactive
6	LOC387912 (retired record)	0.54	0.15	0.17	1.32	inactive
7	LOC338734 (retired record)	-1.6	-2.11	-1.66	-1.02	inactive
8	MORN1 (MORN repeat containing 1)	-1.78	-1.69	-1.93	-1.71	inactive
9	SLAMF6 (SLAM family member 6)	-0.82	-0.93	-0.72	-0.8	inactive
10	ALKBH6 (alkB homolog 6, nucleotide demethylase)	-0.26	-0.35	-0.35	-0.08	inactive
11	PCDHGC5 (protocadherin gamma subfamily C, 5)	-0.71	-0.66	-0.69	-0.78	inactive
12	HACE1	1.06	0.92	1.27	0.99	inactive
13	RAB38 (RAB38, member RAS oncogene family)	1.1	0.99	1.18	1.13	inactive
14	FAM53C (family with sequence similarity 53 member C)	-1.13	-0.66	-1.19	-1.53	inactive
15	ZNF114 (zinc finger protein 114)	-0.4	-0.12	-0.38	-0.71	inactive
16	PLK2 (polo like kinase 2)	-0.89	-0.29	-1.22	-1.17	inactive
17	COL16A1 (collagen type XVI alpha 1 chain)	1.65	1.77	1.62	1.57	inactive
18	ZNF425 (zinc finger protein 425)	-0.5	-0.84	-0.73	0.06	inactive
19	COL2A1 (collagen type II alpha 1 chain)	0.78	0.98	0.55	0.81	inactive
20	CCDC70 (coiled-coil domain containing 70)	0.68	0.8	0.73	0.52	inactive
21	SORCS1 (sortilin related VPS10 domain containing receptor 1)	0.05	-0.01	-0.03	0.2	inactive
22	USE1 (unconventional SNARE in the ER 1)	2.56	2.75	2.62	2.31	active
23	TIMP4 (TIMP metallopeptidase inhibitor 4)	0.09	-0.07	-0.01	0.34	inactive
24	GLG1 (golgi glycoprotein 1)	-1.45	-1.56	-1.34	-1.47	inactive
25	H3C2 (H3 clustered histone 2)	-0.93	-0.97	-0.91	-0.91	inactive
26	APLN (apelin)	1.26	1.36	1.33	1.08	inactive
27	ERFL (ETS repressor factor like)	-0.02	-0.15	-0.01	0.1	inactive
28	MKRN4P (makorin ring finger protein 4, pseudogene)	0.81	0.81	0.79	0.84	inactive
29	RNF19B (ring finger protein 19B)	1.25	1.22	1.07	1.45	inactive
30	BCL2L1 (BCL2 like 1)	-1.34	-1.13	-1.4	-1.48	inactive
31	ZNF143 (zinc finger protein 143)	-0.44	-0.46	-0.45	-0.4	inactive
32	CLEC19A (C-type lectin domain containing 19A)	0.3	0.58	0.03	0.29	inactive
33	KRT80 (keratin 80)	0.82	1.29	0.78	0.39	inactive
34	SSC5D	0.56	0.1	0.41	1.17	inactive
35	PLOD2 (procollagen-lysine,2-oxoglutarate 5-dioxygenase 2)	1.26	1.02	1.55	1.22	inactive
36	LOC401703 (U2 small nuclear RNA auxiliary factor 1 like 4 pseudogene)	-0.26	-0.48	0.21	-0.51	inactive
37	UBQLNL (ubiquilin like)	-1.25	-1.11	-1.33	-1.29	inactive
38	TMEM37 (transmembrane protein 37)	0.51	0.79	0.41	0.33	inactive
39	DSG2 (desmoglein 2)	-1.25	-1.23	-1.43	-1.07	inactive
40	CLDN17 (claudin 17)	0.82	0.99	0.56	0.93	inactive
41	TRMT61B (tRNA methyltransferase 61B)	0.3	0.25	0.58	0.08	inactive
42	CASP6 (caspase 6)	-0.38	-0.83	-0.56	0.25	inactive
43	DCPS (decapping enzyme, scavenger)	-0.3	0.06	-0.35	-0.63	inactive
44	OMG (oligodendrocyte myelin glycoprotein)	-1.03	-1.18	-0.9	-1.01	inactive
45	PRIMPOL (primase and DNA directed polymerase)	-0.09	-0.32	-0.03	0.08	inactive
46	CRISP3 (cysteine rich secretory protein 3)	0.18	0.02	0.31	0.2	inactive
47	CYLC2 (cylicin 2)	0.99	0.9	1.03	1.04	inactive
48	NDUFAF4 (NADH:ubiquinone oxidoreductase complex assembly factor 4)	-0.32	-0.3	-0.17	-0.48	inactive
49	H3C6 (H3 clustered histone 6)	-0.53	-0.59	-0.27	-0.73	inactive
50	KRI1 (KRI1 homolog)	0.42	0.42	0.55	0.29	inactive
51	IL26 (interleukin 26)	0.12	0.19	-0.02	0.2	inactive
52	CLSPN (claspin)	-0.12	-0.6	-0.02	0.27	inactive
53	ZHX1 (zinc fingers and homeoboxes 1)	-0.37	-0.43	-0.5	-0.18	inactive
54	ANGPT4 (angiopoietin 4)	-1.67	-1.52	-1.91	-1.58	inactive
55	OR5H14 (olfactory receptor family 5 subfamily H member 14)	0.93	0.91	0.74	1.13	inactive
56	MAPKAPK5 (MAPK activated protein kinase 5)	0.7	0.69	1.12	0.28	inactive
57	UQCR10 (ubiquinol-cytochrome c reductase, complex III subunit X)	-1.46	-1.24	-1.18	-1.96	inactive
58	CST7 (cystatin F)	-0.38	-0.42	-0.44	-0.3	inactive
59	ISLR2-AS1 (ISLR2 antisense RNA 1)	2.34	1.51	2.74	2.76	active
60	KRT85 (keratin 85)	1.42	1.65	1.32	1.28	inactive
61	LALBA (lactalbumin alpha)	-0.42	-0.24	-0.27	-0.75	inactive
62	CLCC1 (chloride channel CLIC like 1)	-0.77	-0.73	-0.83	-0.76	inactive
63	DNAAF2 (dynein axonemal assembly factor 2)	-0.79	-1.12	-0.94	-0.31	inactive
64	PGM2L1 (phosphoglucomutase 2 like 1)	-0.24	-0.13	-0.45	-0.14	inactive
65	DEF6 (DEF6 guanine nucleotide exchange factor)	0.17	0.01	0.27	0.24	inactive
66	GNPNAT1 (glucosamine-phosphate N-acetyltransferase 1)	-0.42	-0.44	-0.27	-0.54	inactive
67	KLK7 (kallikrein related peptidase 7)	0.07	0.24	0.12	-0.16	inactive
68	E2F8 (E2F transcription factor 8)	1.75	1.6	1.55	2.09	inactive
69	PIAS3 (protein inhibitor of activated STAT 3)	0.45	0.75	0.43	0.18	inactive
70	CD2BP2 (CD2 cytoplasmic tail binding protein 2)	2.76	2.8	2.63	2.84	active
71	SUCLG2 (succinate-CoA ligase GDP-forming subunit beta)	-0.64	-0.6	-0.52	-0.8	inactive
72	ANKRD18DP (ankyrin repeat domain 18D, pseudogene)	-0.85	-0.71	-1.05	-0.8	inactive
73	KRT2 (keratin 2)	-0.77	-0.65	-0.9	-0.77	inactive

Not a retest: 12 of the entries above.
no.	gene knocked down	mean z-score	z-score, replicate A	z-score, replicate B	z-score, replicate C	call
37	UBQLNL (ubiquilin like)	-1.25	-1.11	-1.33	-1.29	inactive
38	TMEM37 (transmembrane protein 37)	0.51	0.79	0.41	0.33	inactive
39	DSG2 (desmoglein 2)	-1.25	-1.23	-1.43	-1.07	inactive
40	CLDN17 (claudin 17)	0.82	0.99	0.56	0.93	inactive
41	TRMT61B (tRNA methyltransferase 61B)	0.3	0.25	0.58	0.08	inactive
42	CASP6 (caspase 6)	-0.38	-0.83	-0.56	0.25	inactive
43	DCPS (decapping enzyme, scavenger)	-0.3	0.06	-0.35	-0.63	inactive
44	OMG (oligodendrocyte myelin glycoprotein)	-1.03	-1.18	-0.9	-1.01	inactive
45	PRIMPOL (primase and DNA directed polymerase)	-0.09	-0.32	-0.03	0.08	inactive
46	CRISP3 (cysteine rich secretory protein 3)	0.18	0.02	0.31	0.2	inactive
47	CYLC2 (cylicin 2)	0.99	0.9	1.03	1.04	inactive
48	NDUFAF4 (NADH:ubiquinone oxidoreductase complex assembly factor 4)	-0.32	-0.3	-0.17	-0.48	inactive
